Data: publication PMC6151270 (Biochemistry, 2018)

B1: FP_HM_TM, gp41 […]/SGGRGG/[…] (domain or fragment)
chain: not shown
B2: FP_HM, gp41 […]/SGGRGG/[…] (domain or fragment)
chain: not shown

Experiments:
Assay in all cases: SEC
SEC [1] = target: the molecule itself
SEC [2] = target: the molecule itself; remark: listed apart in the source
SEC [3] = target: the molecule itself; remark: listed apart in the source
SEC [4] = target: the molecule itself; remark: listed apart in the source

Protein | stoichiometry N (SEC [1]) | monomer:trimer ratio (SEC [2]) | stoichiometry N (SEC [3]) | stoichiometry N (SEC [4])
B1 | 3 | ~1 | 3 | 3
B2 | 3 |  | 3 | 3

Read-outs that look alike come from different tables or passages of the source.
